Source: US5032514A, “Metabolic pathway engineering to increase production of ascorbic acid intermediates” (Genentech, Inc., priority 1988, dated 1991)

Tested on: E. herbicola
Experiment: shake flask incubations of whole cells with 2-KLG or 5-KDG
Format: cell-based
Details: whole cells at 11 OD550, 12 g/1 substrate

Compound: O=C(CO)[C@@H](O)[C@H](O)[C@@H](O)C(=O)O [5-KDG, 5-keto-D-gluconate]
- metabolites observed: No metabolites were observed
- time by which substrate was eliminated: ≤ 17 h
